Results from article PMC3642348, “Human and Viral Golgi Anti-apoptotic Proteins (GAAPs) Oligomerize via Different Mechanisms and Monomeric GAAP Inhibits Apoptosis and Modulates Calcium*^([image sbox.jpg])” (2013).

Legend:
[1] = biological target: CMLV vGAAP purified from yeast, GFP-His8 tag removed (camelpox virus); experiment: non-reducing SDS-PAGE
[2] = biological target: CMLV vGAAP-GFP-His8 fusion protein before tobacco etch virus protease cleavage (camelpox virus); experiment: non-reducing SDS-PAGE

Substance	stoichiometry N [1]	stoichiometry N [2]
CMLV vGAAP purified from yeast, GFP-His8 tag removed (natural protein)	4	–
CMLV vGAAP-GFP-His8 fusion protein before tobacco etch virus protease cleavage (natural protein)	–	2
